A mixed list of measured activities; the numbers were collected in NIAID ChemDB.

Shared fields: target-level tests; species: HIV-1; target: Protease; read-out: IC50

ICn is the concentration giving n% inhibition. An empty or dashed field is not shown. Conditions beyond the fields shown may differ between rows.

| smiles | strain or isolate | read by | result |
|---|---|---|---|
| COC(=O)[C@@H](Cc1ccc(O)c(O)c1)OC(=O)/C=C/c1ccc(O)c(O)c1/C=C/c1ccc(O)c(O)c1 | - | fluorescence | 10.73 µg/mL |
| CCOc1ccc(C[C@H](NC(=O)c2cccc(O)c2C)[C@H](O)C(=O)N2CSC(C)(C)[C@H]2C(=O)NCc2ccccc2C)cc1 | - | HPLC | <0.05 µg/mL |
| Cc1ccc(Nc2cccc3c2C(=O)c2cccc(Nc4ccc(C)cc4S(=O)(=O)O)c2C3=O)c(S(=O)(=O)O)c1 | - | HPLC | 20 µM |
| CC(C)[C@H](NS(=O)(=O)CCc1ccccn1)C(=O)N[C@@H](Cc1ccccc1)C(=O)C(F)(F)[C@H](Cc1ccccc1)NC(=O)[C@@H](NS(=O)(=O)CCc1ccccn1)C(C)C | - | fluorescence | 0.00024 µM |
| CC(C)N(CC(=O)N(CC(=O)NC12NC(=O)C3(O)C4C5CC(C6C5C3C61)C42)Cc1ccccc1)C(=O)CN(C)C(=O)OCc1ccccc1 | - | absorbance | 0.5 µM |
| CCN(CC)c1ccc2cc3ccc(=[N+](CC)CC)cc-3oc2c1 | - | HPLC | 17 µM |
| CC(C)[C@H](NC(=O)OCc1ccccn1)C(=O)N[C@@H](Cc1ccccc1)[C@H](O)[C@H](O)[C@H](Cc1ccccc1)NC(=O)OC(C)(C)C | - | fluorescence | <0.005 µM |
| O=C(/C=C/c1ccc(O)c(O)c1/C=C/c1ccc(O)c(O)c1)O[C@H](Cc1ccc(O)c(O)c1)C(=O)O | - | fluorescence | 12.23 µg/mL |
| CC1(C)S[C@H]([C@H](NC(=O)Cc2ccccc2)C(=O)NCc2ccccc2)N[C@H]1C(=O)N[C@H](Cc1ccccc1)[C@H](O)CC(=O)NCc1ccccc1 | RF | HPLC | 0.0046 µM |
| Cc1cn([C@H]2C[C@H](N=[N+]=[N-])[C@@H](COC(=O)CCCCC(=O)O[C@H]3CC[C@]4(C)[C@H]5CC=C6[C@@H]7CC(C)(C)CC[C@]7(C(=O)O)CC[C@@]6(C)[C@]5(C)CC[C@H]4C3(C)C)O2)c(=O)[nH]c1=O | - | HPLC | 3.2 µM |
| Cc1ccccc1CNC(=O)[C@H]1N(C(=O)[C@@H](O)[C@H](Cc2ccc(C(C)C)cc2)NC(=O)c2cccc(O)c2C)CSC1(C)C | - | HPLC | <0.05 µg/mL |
| CC(C)(C)OC(=O)N[C@@H](Cc1ccccc1)C(O)C(O)[C@H](Cc1ccccc1)NC(=O)OC(C)(C)C | - | fluorescence | >0.01 µM |
| Cc1ccccc1CNC(=O)[C@H]1N(C(=O)[C@@H](O)[C@H](Cc2ccccc2)NC(=O)c2cccc(O)c2C)CSC1(C)C | - | HPLC | <0.05 µg/mL |
| CC(C)[C@H](NC(=O)[C@H](CCCN=C(N)N)NC(=O)N[C@@H](Cc1ccccc1)C(=O)O)C(=O)N[C@H](C=O)Cc1ccccc1 | - | - | 2 µM |
| Cc1ccc(NC(=O)c2cc(O)c(N=Nc3cc(S(=O)(=O)O)ccc3O)c3ccccc23)c(C)c1 | - | HPLC | 40 µM |
| COc1ccc(C[C@H](NC(=O)c2cccc(O)c2C)[C@H](O)C(=O)N2CSC(C)(C)[C@H]2C(=O)NCc2cc(F)ccc2C)cc1 | - | HPLC | <0.05 µg/mL |
| CC(C)[C@H](NC(=O)OCc1ccccn1)C(=O)N[C@@H](Cc1ccccc1)[C@H](O)[C@H](O)[C@H](Cc1ccccc1)NC(=O)[C@@H](NC(=O)OCc1ccccn1)C(C)C | - | fluorescence | <0.001 µM |
| C=C(C)[C@@H]1CC[C@]2(C(=O)O)CC[C@]3(C)[C@H](CC[C@@H]4[C@@]5(C)CC[C@H](O)C(C)(C)[C@@H]5CC[C@]43C)[C@@H]12 | - | HPLC | 9 µM |
| CC1(C)S[C@@H]2[C@H](NC(=O)Cc3ccccc3)C(=O)N2[C@H]1C(=O)NCCNC(=O)[C@@H]1N2C(=O)[C@@H](NC(=O)Cc3ccccc3)[C@H]2SC1(C)C | RF | HPLC | 0.14 µM |
| Cc1ccccc1CNC(=O)[C@H]1N(C(=O)[C@@H](O)[C@H](Cc2ccc(OC(C)C)cc2)NC(=O)c2cccc(O)c2C)CSC1(C)C | - | HPLC | <0.05 µg/mL |
| CC(C)[C@H](NC(=O)OCc1ccccc1)C(=O)N[C@@H](Cc1ccccc1)C(=O)C(F)(F)[C@H](Cc1ccccc1)NC(=O)[C@@H](NC(=O)OCc1ccccc1)C(C)C | - | fluorescence | 0.0001 µM |
| CC(C)[C@H](NC(=O)[C@H](C)NC(=O)OCc1ccccc1)C(=O)NC(Cc1ccccc1)C(=O)C(=O)N1CCC[C@H]1C(=O)NC(C)(C)C | - | fluorescence | 0.0078 µM |
| COc1ccc(C[C@H](NC(=O)c2cccc(N)c2Cl)[C@H](O)C(=O)N2CSC(C)(C)[C@H]2C(=O)NCc2ccccc2C)cc1 | - | HPLC | <0.05 µg/mL |
| CC(NC(=S)c1ncccn1)C(=O)NC(C(=O)NC12NC(=O)C3(O)C4C5CC(C6C5C3C61)C42)C(C)C | - | absorbance | 0.5 µM |
| Cc1cc(N=Nc2ccc(N=Nc3ccc(S(=O)(=O)O)cc3)cc2)cc(C(=O)O)c1O | - | HPLC | 25 µM |
| COC(=O)CCCC(=O)O[C@H]1CC[C@@]2(C)C(CC[C@]3(C)C2CC=C2C4[C@@H](C)[C@H](C)CC[C@]4(C(=O)OC)CC[C@]23C)C1(C)C | - | HPLC | >50 µM |
| CC(C)(C)NC(=O)[C@@H]1C[C@H](Cl)CN1C(=O)[C@@H](O)[C@H](Cc1ccccc1)NC(=O)OC1CCNC1 | - | - | >1 µM |
| CCN(Cc1cccc(S(=O)(=O)[O-])c1)c1ccc(C(=C2C=CC(=[N+](CC)Cc3cccc(S(=O)(=O)O)c3)C=C2)c2ccccc2S(=O)(=O)O)cc1 | - | HPLC | 31 µM |
| CC(C)[C@H](NC(=O)[C@H](CCCN=C(N)N)NC(=O)N[C@@H](Cc1ccc(O)cc1)C(=O)O)C(=O)N[C@H](C=O)Cc1ccccc1 | - | - | 18 µM |
| Nc1c(N=Nc2ccc([N+](=O)[O-])cc2)c(S(=O)(=O)O)cc2cc(S(=O)(=O)O)cc(O)c12 | - | HPLC | >100 µM |
| CC(C)[C@H](NC(=O)CCc1ccccn1)C(=O)N[C@@H](Cc1ccccc1)C(=O)C(F)(F)[C@H](Cc1ccccc1)NC(=O)[C@H](NC(=O)CCc1ccccn1)C(C)C | - | fluorescence | 0.00033 µM |
| O=C(/C=C/c1ccc(O)c2c1[C@H](C(=O)O)[C@H](c1ccc(O)c(O)c1)O2)O[C@H](Cc1ccc(O)c(O)c1)C(=O)O | - | fluorescence | 25.2 µg/mL |
| CC(C)N(CC(=O)NC12NC(=O)C3(O)C4C5CC(C6C5C3C61)C42)C(=O)CN(C)C(=O)OCc1ccccc1 | - | absorbance | 10 µM |
| CC(C)[C@H](NC(=O)[C@H](C)NC(=O)OCc1ccccc1)C(=O)N[C@@H](Cc1ccccc1)[C@H](O)CN1C[C@H]2CCCC[C@H]2C[C@H]1C(=O)NC(C)(C)C | - | fluorescence | 0.004 µM |
| Cc1cn([C@H]2C[C@H](N=[N+]=[N-])[C@@H](COC(=O)CCCCC(=O)N[C@@H]3CC[C@]4(C)[C@H]5CC=C6[C@@H]7CC(C)(C)CC[C@]7(C(=O)O)CC[C@@]6(C)[C@]5(C)CC[C@H]4C3(C)C)O2)c(=O)[nH]c1=O | - | HPLC | 1.9 µM |
| Nc1c(N=Nc2ccc(S(=O)(=O)CCOS(=O)(=O)O)cc2)c(S(=O)(=O)O)cc2cc(S(=O)(=O)O)c(N=Nc3ccc(S(=O)(=O)CCOS(=O)(=O)O)cc3)c(O)c12 | - | HPLC | 100 µM |
| CC(C)[C@H](NC(=O)CCC1CCCCN1)C(=O)N[C@@H](Cc1ccccc1)C(O)[C@H](Cc1ccccc1)NC(=O)[C@@H](NC(=O)CCC1CCCCN1)C(C)C | - | fluorescence | ~0.01 µM |
| CC(C)[C@H](NC(=O)[C@H](C)NC(=O)OCc1ccccc1)C(=O)N[C@@H](Cc1ccccc1)[C@H](O)C(=O)N1CCC[C@H]1C(=O)NC(C)(C)C | - | fluorescence | 0.0103 µM |
| Cc1ccc(F)cc1CNC(=O)[C@H]1N(C(=O)[C@@H](O)[C@H](Cc2ccccc2)NC(=O)c2cccc(O)c2C)CSC1(C)C | - | HPLC | <0.05 µg/mL |
| Nc1c(N=Nc2cccc([N+](=O)[O-])c2)c(S(=O)(=O)O)cc2cc(S(=O)(=O)O)c(N=Nc3ccccc3)c(O)c12 | - | HPLC | 48 µM |

Repeating the final 5 entries:

smiles	strain or isolate	read by	result
Nc1c(N=Nc2ccc(S(=O)(=O)CCOS(=O)(=O)O)cc2)c(S(=O)(=O)O)cc2cc(S(=O)(=O)O)c(N=Nc3ccc(S(=O)(=O)CCOS(=O)(=O)O)cc3)c(O)c12	-	HPLC	100 µM
CC(C)[C@H](NC(=O)CCC1CCCCN1)C(=O)N[C@@H](Cc1ccccc1)C(O)[C@H](Cc1ccccc1)NC(=O)[C@@H](NC(=O)CCC1CCCCN1)C(C)C	-	fluorescence	~0.01 µM
CC(C)[C@H](NC(=O)[C@H](C)NC(=O)OCc1ccccc1)C(=O)N[C@@H](Cc1ccccc1)[C@H](O)C(=O)N1CCC[C@H]1C(=O)NC(C)(C)C	-	fluorescence	0.0103 µM
Cc1ccc(F)cc1CNC(=O)[C@H]1N(C(=O)[C@@H](O)[C@H](Cc2ccccc2)NC(=O)c2cccc(O)c2C)CSC1(C)C	-	HPLC	<0.05 µg/mL
Nc1c(N=Nc2cccc([N+](=O)[O-])c2)c(S(=O)(=O)O)cc2cc(S(=O)(=O)O)c(N=Nc3ccccc3)c(O)c12	-	HPLC	48 µM